Reference: the NIST ThermoML archive (doi:10.1016/j.fluid.2014.05.010)
Numbers after ± are expanded uncertainties.

Conditions: 101.33 kPa, Liquid, Vibrating tube method

Structure (SMILES) | mass density (278.15 K) [kg/m3] | mass density (283.15 K) [kg/m3] | mass density (288.15 K) [kg/m3] | mass density (293.15 K) [kg/m3] | mass density (298.15 K) [kg/m3] | mass density (303.15 K) [kg/m3] | mass density (308.15 K) [kg/m3] | mass density (313.15 K) [kg/m3] | mass density (318.15 K) [kg/m3] | mass density (323.15 K) [kg/m3] | mass density (328.15 K) [kg/m3] | mass density (333.15 K) [kg/m3] | mass density (338.15 K) [kg/m3] | mass density (343.15 K) [kg/m3] | mass density (348.15 K) [kg/m3] | mass density (353.15 K) [kg/m3]
CCC[N+](C)(CC)CC.O=S(=O)(F)[N-]S(=O)(=O)F | 1302.93 ± 1 | 1299.07 ± 1 | 1295.18 ± 1 | 1291.32 ± 1 | 1287.47 ± 1 | 1283.63 ± 1 | 1279.61 ± 1 | 1275.77 ± 1 | 1271.01 ± 1 | 1267.53 ± 1 | 1264.67 ± 1 | 1259.93 ± 1 | 1254.21 ± 1 | 1251.49 ± 1 | 1247.1 ± 1 | 1246.11 ± 1
CCC[N+]1(C)CCCCC1.O=S(=O)(F)[N-]S(=O)(=O)F [1-methyl-1-propylpiperidinium bis(fluorosulfonyl)imide] | 1336.17 ± 1 | 1332.19 ± 1 | 1328.29 ± 1 | 1324.44 ± 1 | 1320.58 ± 1 | 1316.72 ± 1 | 1312 ± 1 | 1308.09 ± 1 | 1304.8 ± 1 | 1300.04 ± 1 | 1297.11 ± 1 | 1292.38 ± 1 | 1288.66 ± 1 | 1284.35 ± 1 | 1280 ± 1 | 1277.58 ± 1
CCC[N+]1(C)CCCC1.O=S(=O)(F)[N-]S(=O)(=O)F [1-methyl-1-propylpyrrolidinium bis(fluorosulfonyl)amide] | 1355.55 ± 1 | 1351.48 ± 1 | 1347.41 ± 1 | 1343.37 ± 1 | 1339.33 ± 1 | 1335.34 ± 1 | 1331.36 ± 1 | 1326.23 ± 1 | 1323.45 ± 1 | 1319.53 ± 1 | 1315.63 ± 1 | 1311.75 ± 1 | 1307.88 ± 1 | 1304.04 ± 1 | 1300.21 ± 1 | 1296.41 ± 1
